PubChem BioAssay AID1259414 | Drosophila RNAi Screening Center | 2018
In all, the deposit lists about 24,000 reagents; below is an unselected part of those that have a named target and a result. In the full data, about 1,210 (5%) are marked active. 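Inactive calls also include excluded dsRNAs with several or no targets, genes unexpressed in JW18, and well A1, regardless of score.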 A plus sign joins genes that one reagent is predicted to hit.

- Test: 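Fly genes that alter Wolbachia amount inside host cells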 (primary screen)
- Cell system: Drosophila JW18 cells infected with Wolbachia
- Reagents: long dsRNA against Drosophila genes, 0.25 µg dsRNA per well of a 384-well plate
- Duration: 5 days
- Treatment: cells persistently infected with Wolbachia before knock-down; no added drug
- Measured: 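Imaged fluorescence in situ signal for Wolbachia 23S rRNA per DAPI-counted host cell, given as a robust z-score within each plate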
- Scale: Wolbachia per cell robust z: higher = more Wolbachia per host cell than the plate typical
- Active means: 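Active if absolute robust z reaches 1.5 in two or more of three replicates, leaving out multi- or no-target dsRNAs, genes unexpressed in JW18 and A1 wells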

gene,amplicon,"Wolbachia per cell robust z, rep 1","Wolbachia per cell robust z, rep 2","Wolbachia per cell robust z, rep 3",outcome
CG7953,DRSC01902,-9,0.413,0.716,inactive
CG6163,DRSC10595,1.28,-0.254,1.42,inactive
CG6163,DRSC26527,-0.146,-0.446,1.24,inactive
pHCl-2 (pH-sensitive chloride channel 2),DRSC14306,-3.97,-2.74,-5.42,inactive
RecQ5 (RecQ5 helicase),DRSC11266,1.19,-0.067,0.5,inactive
Spase25 (Spase 25-subunit),DRSC19776,-0.0895,0.585,-1.5,inactive
CG42710,DRSC41458,0.745,0.583,1.28,inactive
CG31365,DRSC15610,0.338,-0.0637,-0.359,inactive
CG32278,DRSC41328,1.02,1.16,1.08,inactive
sev (sevenless),DRSC20372,0.0313,0.28,0.547,inactive
sev (sevenless),DRSC39109,-2.11,-4.75,-0.176,inactive
Cyp12d1-p + Cyp12d1-d,DRSC27261,0.587,1.04,0.24,inactive
Mal-A8 (Maltase A8),DRSC07234,0.582,-0.946,0.485,inactive
kcc (kazachoc),DRSC04316,-0.86,0.0239,0.244,inactive
kcc (kazachoc),DRSC04516,0.162,0.0842,0.463,inactive
TotE (Turandot E),DRSC21355,0.913,1.01,-0.539,inactive
Spc25,DRSC14164,0.0463,0.808,1.04,inactive
CG13075,DRSC09958,0.179,-0.439,-0.537,inactive
CG13075,DRSC28458,0.356,2.76,0.679,inactive

Limited to “Wolbachia per cell robust z, rep 1” (4 entries from above):
CG6163 [DRSC26527]	-0.146
pHCl-2 (pH-sensitive chloride channel 2) [DRSC14306]	-3.97
RecQ5 (RecQ5 helicase) [DRSC11266]	1.19
Spase25 (Spase 25-subunit) [DRSC19776]	-0.0895

Additional results follow:
gene,amplicon,"Wolbachia per cell robust z, rep 1","Wolbachia per cell robust z, rep 2","Wolbachia per cell robust z, rep 3",outcome
CG4998,DRSC10466,0.447,1.69,0.719,inactive
CG4998,DRSC22911,-0.986,-6.17,-0.756,inactive
Polr3F (RNA polymerase III subunit F),DRSC15785,-0.872,-0.171,-0.222,inactive
RpL36A (Ribosomal protein L36A),DRSC03055,1.77,1.13,2.37,active
RpL36A (Ribosomal protein L36A),DRSC27375,0.855,0.198,0.181,inactive
ft (fat),DRSC00819,1.28,-0.609,-0.167,inactive
ft (fat),DRSC40743,-0.249,-1.53,-1.67,active
Cyp4d21 (Cytochrome P450 4d21),DRSC03305,0.156,0.868,-0.21,inactive
Cyp4d21 (Cytochrome P450 4d21),DRSC25622,0.97,0.415,-0.445,inactive
mRpL43 (mitochondrial ribosomal protein L43),DRSC04508,0.397,-3.76,-3.57,active
mRpL43 (mitochondrial ribosomal protein L43),DRSC22571,-0.389,-1.45,0.84,inactive
fy (fuzzy),DRSC03533,-0.661,0.398,-0.698,inactive
fy (fuzzy),DRSC25931,-1.71,-0.00109,0.105,inactive
Tpt (tRNA 2'-phosphotransferase),DRSC27217,0.462,0.138,0.19,inactive
Cad87A (Cadherin 87A),DRSC16161,-1.49,-6.65,-0.128,inactive
Cad87A (Cadherin 87A),DRSC29158,1.12,0.861,-0.0731,inactive
cana + CG33695,DRSC01163,-0.976,-1.21,-1.21,inactive
cana + CG33695,DRSC23517,1.1,-1.22,0.247,inactive
Ac78C (Adenylyl cyclase 78C),DRSC11467,0.526,0.0157,0.424,inactive
Ac78C (Adenylyl cyclase 78C),DRSC11602,-0.989,-0.584,-0.183,inactive
Ac78C (Adenylyl cyclase 78C),DRSC11619,0.645,0.665,-0.8,inactive
kin17,DRSC11890,0.0501,0.276,0.22,inactive
kin17,DRSC26821,0.0484,0.583,-0.0457,inactive
CG12057,DRSC17797,0.585,-0.186,-1.11,inactive
CG34459,DRSC06973,0.249,-3.1,1.02,inactive
His2B:CG17949 + His2B:CG33868 + His2B:CG33876 + 20 more,DRSC21265,4.2,1.81,2.01,inactive
fon (fondue),DRSC02507,-0.324,0.102,0.481,inactive
